Measured values as given in PMC7024169, “Synthesis and Antimalarial Activity of 1,4-Disubstituted Piperidine Derivatives” (Molecules, 2020).

Tests used:
[1] = test system: Plasmodium falciparum W2 Strain; experiment: Antiplasmodial SYBR Green I assay, chloroquine-resistant W2 strain; assay type: cell-based
[2] = test system: Plasmodium falciparum 3D7 Strain; experiment: Antiplasmodial SYBR Green I assay, chloroquine-sensitive 3D7 strain; assay type: cell-based

Substance | activity against W2 strain, in words [1] | activity against 3D7 strain, in words [2]
2-(2-Chlorophenoxy)-N-(1-benzylpiperidin-4-yl)-N-(3-fluorophenyl) acetamide | good activity | good activity
N-(1-(2-Chlorobenzyl)piperidin-4-yl)-2-(2-chlorophenoxy)-N-(3-fluorophenyl) acetamide | good activity | good activity
2-(2-Chlorophenoxy)-N-(3-fluorophenyl)-N-(1-(perfluorobenzyl) piperidin-4-yl) acetamide | inactive | inactive
